Measured values from several laboratories, pooled; numbers as filed in NIAID ChemDB.

Common to all: enzyme or target tests; species: HIV-1; target: Reverse transcriptase; measure: IC50

Lines come from different laboratories, so protocols vary.

{"smiles": "COC(=O)[C@H](Cc1c[nH]c2ccccc12)NC(=O)OC[C@H]1O[C@@H](n2cc(C)c(=O)[nH]c2=O)C[C@@H]1N=[N+]=[N-]", "method": "radiometric", "value": ">100 µM"}
{"smiles": "CC[C@H](C)[C@H](NC(=O)[C@H](Cc1ccccc1)C[C@@H](O)CN1C[C@H]2CCCC[C@H]2C[C@H]1C(=O)NC(C)(C)C)C(=O)NCc1nc2ccccc2[nH]1", "value": "100 µM"}
{"smiles": "Nc1ccccc1NC(=O)CSc1sc(Cl)nc1-c1ccc(Br)cc1Br", "value": ">355 µM"}
{"smiles": "CCC1(c2ccc(CCc3ccccc3)cc2)Oc2ccccc2-n2cccc2C1=O", "strain or isolate": "WT", "method": "nucleotide incorporation / radiometric", "value": "0.17 µM"}
{"smiles": "Cc1cccc2c1nc(-c1ccncc1)n2Cc1c(F)cccc1F", "value": "<10 µM"}
{"smiles": "Cc1cc(C)cc(S(=O)(=O)c2c(C(=O)Nc3ccc(O)cc3)[nH]c3ccc(Cl)cc23)c1", "mutations": "Y181I", "method": "RT activity / radiometric", "value": "0.061 µM"}
{"smiles": "CN(C)c1nc(Cc2c(F)cccc2F)cc(=O)[nH]1", "strain or isolate": "IIIB", "mutations": "RT-K103N", "method": "nucleotide incorporation / radiometric", "value": "3 µM"}
{"smiles": "C/C=C/CSc1cc(NC(=S)c2ccsc2C)ccc1Cl", "value": "7.5 µM"}
{"smiles": "Cc1cccc2c1nc(-c1ccc(C#N)cc1)n2Cc1c(F)cccc1F", "value": ">10 µM"}
{"smiles": "CCC1(c2cccc(COc3ccccc3)c2)Oc2ccccc2-n2cccc2C1=O", "strain or isolate": "WT", "method": "nucleotide incorporation / radiometric", "value": "0.8 µM"}
{"smiles": "COC(=O)[C@@H](Cc1c[nH]c2ccccc12)NC(=O)OC[C@H]1O[C@@H](n2cc(C)c(=O)[nH]c2=O)C[C@@H]1N=[N+]=[N-]", "method": "radiometric", "value": ">100 µM"}
{"smiles": "CCc1c([Se]c2ccccn2)n(COCc2ccccc2)c(=O)[nH]c1=O", "mutations": "RT-T181C", "method": "RT activity", "value": "6.8 µM"}
{"smiles": "COC(=O)[C@H](Cc1c[nH]c2ccccc12)NP(=O)(O)OC[C@H]1O[C@@H](n2cc(C)c(=O)[nH]c2=O)C[C@@H]1N=[N+]=[N-]", "method": "radiometric", "value": ">100 µM"}
{"smiles": "Cc1cccc(NC(=S)NC[C@H](C)c2ccccc2)n1", "method": "nucleotide incorporation", "value": "16.7 µM"}
{"smiles": "COC(=O)[C@@H](Cc1ccccc1)NC(=O)OC[C@H]1O[C@@H](n2cc(C)c(=O)[nH]c2=O)C[C@@H]1N=[N+]=[N-]", "method": "radiometric", "value": ">100 µM"}
{"smiles": "CC(C)=CCN1Cc2cccc3[nH]c(=S)n(c23)C[C@@H]1C", "mutations": "RT-T181C", "method": "RT activity", "value": "8.5 µM"}
{"smiles": "COc1c2ccccc2c(OC)c2c(C)cc(=O)[nH]c12", "value": "153.9 µg/mL"}
{"smiles": "Cc1cc(C)c2nc(NC(=S)NC[C@H](C)c3ccccc3)sc2c1", "method": "nucleotide incorporation", "value": "38.8 µM"}
{"smiles": "CNC(=O)[C@H](Cc1ccccc1)NC(=O)OC[C@H]1O[C@@H](n2cc(C)c(=O)[nH]c2=O)C[C@@H]1N=[N+]=[N-]", "method": "radiometric", "value": ">100 µM"}
{"smiles": "Cc1cccc2nc(-c3c(F)cccc3F)n(Cc3c(F)cccc3F)c12", "value": ">10 µM"}
{"smiles": "CCN1c2ncccc2C(=O)N(C)c2ccc(-c3cccc(N)c3)nc21", "mutations": "RT-Y181C", "method": "nucleotide incorporation", "value": "0.18 µM"}
{"smiles": "CC[C@H](C)[C@H](NC(=O)[C@H](Cc1ccccc1)C[C@H](O)CN1C[C@H]2CCCC[C@H]2C[C@H]1C(=O)NC(C)(C)C)C(=O)NCc1nc2ccccc2[nH]1", "value": "100 µM"}
{"smiles": "COc1cc(/C=C/C(=O)NCCc2ccc(O)cc2)ccc1O", "value": "9.6 µg/mL"}
{"smiles": "Cc1c(Sc2ccccc2)n(COCCO)c(=O)[nH]c1=O", "mutations": "RT-I135T", "value": "~2 µM"}
{"smiles": "Cc1cn([C@H]2CC[C@@H](COP(=O)(O)OP(=O)(O)OP(=O)(O)O)O2)c(=O)[nH]c1=O", "method": "nucleotide incorporation / radiometric", "value": "0.12 µM"}
{"smiles": "Cc1c(C(C)c2c(F)cccc2F)nc(N2CCOCC2)[nH]c1=O", "strain or isolate": "IIIB", "mutations": "RT-Y181I", "method": "nucleotide incorporation / radiometric", "value": ">20 µM"}
{"smiles": "CCc1c(Sc2ccccc2)n(COCc2ccccc2)c(=O)[nH]c1=O", "strain or isolate": "RT-WT", "method": "RT activity", "value": "0.2 µM"}
{"smiles": "Cc1csc(NC(=S)NC[C@H](C)c2ccccc2)n1", "method": "nucleotide incorporation", "value": "5.1 µM"}
{"smiles": "Cc1occc1C(=S)Nc1ccc(Cl)c(/C=N/OC(C)(C)C)c1", "mutations": "RT-L74V", "value": "6.1 µM"}
{"smiles": "CCC1(c2ccc(COc3ccccc3Cl)cc2)Oc2ccccc2-n2cccc2C1=O", "mutations": "RT-L100I", "method": "nucleotide incorporation / radiometric", "value": "1.4 µM"}
{"smiles": "Cc1csc(NC(=S)N[C@H](C)c2ccccc2)n1", "method": "nucleotide incorporation", "value": "0.8 µM"}
{"smiles": "Cc1c(Cc2c(F)cccc2F)nc(N(C)C)[nH]c1=O", "strain or isolate": "IIIB", "mutations": "RT-L100I", "method": "nucleotide incorporation / radiometric", "value": "10 µM"}
{"smiles": "C[C@@H](CNC(=S)Nc1nccs1)c1ccccc1", "method": "nucleotide incorporation", "value": "10 µM"}
{"smiles": "CC(C)[C@H](NC(=O)OC(C)(C)C)C(=O)N[C@@H](Cc1ccc(OCc2ccccc2)cc1)C(=O)C(F)(F)C(=O)NCc1ccccc1", "value": "100 µM"}
{"smiles": "CC(C(=O)CN1CCN(c2ccccc2Cl)CC1)N1C(=O)c2ccccc2C1=O", "value": "43.8 µM"}
{"smiles": "CC(C)OC(=O)OCOP(=O)(CO[C@H](C)Cn1cnc2c(N)ncnc21)OCOC(=O)OC(C)C", "method": "RT activity", "value": "0.38 µM"}
{"smiles": "Cc1cn([C@H]2CC[C@@H](COP(=O)(O)OP(=O)(O)OP(=O)(O)O)O2)c(=O)[nH]c1=O", "mutations": "RT-E138A", "method": "nucleotide incorporation / radiometric", "value": "0.09 µM"}
{"smiles": "C[C@H](CNC(=S)Nc1nccs1)c1ccccc1", "method": "nucleotide incorporation", "value": ">100 µM"}
{"smiles": "Cc1cccc2c1nc(-c1c(F)cccc1F)n2S(=O)(=O)c1ccccc1", "value": "<10 µM"}
{"smiles": "Cc1ccc(NC(=S)NC[C@@H](C)c2ccccc2)nc1", "method": "nucleotide incorporation", "value": "7.7 µM"}
{"smiles": "Cc1cn([C@H]2C=C[C@@H](OCP(=O)(O)OP(=O)(O)OP(=O)(O)O)O2)c(=O)[nH]c1=O", "method": "nucleotide incorporation / radiometric", "value": "0.39 µM"}
{"smiles": "Cc1cccc2c1nc(-c1cccc3ccccc13)n2Cc1c(F)cccc1F", "value": ">10 µM"}
{"smiles": "CCN1c2ncccc2C(=O)N(C)c2ccc(-c3ncc[nH]3)nc21", "mutations": "RT-Y181C", "method": "nucleotide incorporation", "value": "0.74 µM"}
{"smiles": "CCC1(c2ccc(COc3cccc(Cl)c3)cc2)Oc2ccccc2-n2cccc2C1=O", "mutations": "RT-L100I", "method": "nucleotide incorporation / radiometric", "value": "0.25 µM"}
{"smiles": "CC(C)[C@H](NS(=O)(=O)Cc1ccccc1)C(=O)N[C@@H](Cc1ccc(OCc2ccccc2)cc1)C(=O)C(F)(F)C(=O)NCc1ccccc1", "value": "100 µM"}

For reference, 5 entries again:

smiles	strain or isolate	mutations	method	value
Cc1occc1C(=S)Nc1ccc(Cl)c(/C=N/OC(C)(C)C)c1	-	RT-L74V	-	6.1 µM
CN(C)c1nc(Cc2c(F)cccc2F)cc(=O)[nH]1	IIIB	RT-K103N	nucleotide incorporation / radiometric	3 µM
CCC1(c2ccc(COc3ccccc3Cl)cc2)Oc2ccccc2-n2cccc2C1=O	-	RT-L100I	nucleotide incorporation / radiometric	1.4 µM
Cc1cccc2c1nc(-c1ccc(C#N)cc1)n2Cc1c(F)cccc1F	-	-	-	>10 µM
CCN1c2ncccc2C(=O)N(C)c2ccc(-c3ncc[nH]3)nc21	-	RT-Y181C	nucleotide incorporation	0.74 µM

An empty or dashed field is not shown. ICn is the concentration giving n% inhibition.